From article PMC8018184, “Evaluation of the Pharmacophoric Role of the O–O Bond in Synthetic Antileishmanial Compounds: Comparison between 1,2-Dioxanes and Tetrahydropyrans” (Journal of Medicinal Chemistry, 2020)

These molecules were tested on L. donovani promastigotes (assay: Confocal microscopy localization of fluorescent compounds). Conditions: labeled compound at IC50, 45/50 min; TO-PRO-3 counterstain.
Type: cell-based, Leishmania donovani

Which “Cell localization in promastigotes (confocal microscopy)” value (“Cell localization in promastigotes” for short) does the source give for `CCCCC1(CCCC)C[C@H](CNCCCCNc2ccc([N+](=O)[O-])c3nonc23)[C@](C)(OC)OO1` [2f, N^1-((6,6-Dibutyl-3-methoxy-3-methyl-1,2-dioxan-4-yl)methyl)-N^4-(7-nitrobenzo[c][1,2,5]oxadiazol-4-yl)butane-1,4-diamine] here?
Its value is “spread throughout the parasite cytoplasm and it was able to enter the kinetoplast but not the nucleus”.

How did the “Cell localization in promastigotes” value turn out when `CCCCC1(CCCC)CO[C@@](C)(OC)[C@@H](CNCCCCNc2c3ccc(Cl)cc3nc3ccc(OC)cc23)C1` (racemic) [3e, N^1-(6-Chloro-2-methoxyacridin-9-yl)-N^4-((5,5-dibutyl-2-methoxy-2-methyltetrahydro-2H-pyran-3-yl)methyl)butane-1,4-diamine] was run?
The value was “in the parasite cytoplasm and in the kinetoplast but not in the nucleus”.

For `CCCCC1(CCCC)C[C@H](CNCCCCNc2c3ccc(Cl)cc3nc3ccc(OC)cc23)[C@](C)(OC)OO1` [2e, N^1-(6-Chloro-2-methoxyacridin-9-yl)-N^4-((6,6-dibutyl-3-methoxy-3-methyl-1,2-dioxan-4-yl)methyl)butane-1,4-diamine], which “Cell localization in promastigotes” value is on record?
Its value is “colocalization of green and blue fluorescence not only in the kinetoplast but also in the nucleus”.
